Assay results from PMC2751766 (Journal of acquired immune deficiency syndromes (1999), 2009).
Like-named read-outs stand apart in the source and are kept apart here.

Legend:
[1] = type: in vivo, human; conditions: for AUCτ: τ = 12 hours; for AUCτ ratio Day 1 CVF:BP: day 1, single dose; for AUCτ ratio Day 7 CVF:BP: day 7, multiple dose
[2] = CVF protein binding by rapid equilibrium dialysis of pooled day 7 CVF samples; type: in vitro ADME, human
[3] = Safety and tolerability in healthy HIV-negative female volunteers; type: in vivo, human; conditions: maraviroc 300 mg orally twice daily, 7 days
[4] = BP, day 7, 300 mg orally twice daily, n = 10, median (interquartile range)
[5] = CVF, day 7, 300 mg orally twice daily, n = 10, median (interquartile range)
[6] = VT, day 7, 300 mg orally twice daily, composite profile
[7] = median (interquartile range), listed as Maraviroc

maraviroc
Women with detectable BP concentrations ([1]; BP, 1 hour after the first dose (day 1)): 12 of 12
Cmax ([1]; BP, day 1, single 300 mg oral dose, n = 12, median (interquartile range)): 503 (401–714) ng/mL
Tmax ([1]; BP, day 1, single 300 mg oral dose, n = 12, median (range)): 2 (1–3) h
Cmax [1, 4]: 563 (537–846) ng/mL
Tmax ([1]; BP, day 7, 300 mg orally twice daily, n = 10, median (range)): 3 (1–4) h
AUCτ [1, 4]: 2515 (2188–2783) ng·h/mL
Accumulation in BP over 7 days of dosing ([1]; BP, day 7 vs day 1 AUCτ): 26%
Median protein-free CVF concentration relative to 0.5 ng/mL ([1]; CVF, 1 hour after a single dose): 10 fold
Women in whom CVF concentrations were observed ([1]; CVF, 1 hour after dosing): 50%
Women with detectable CVF concentrations ([1]; CVF, 1 hour after the first dose (day 1)): 6 of 12
Women in whom CVF concentrations were observed ([1]; CVF, 2 hours after dosing): 100%
Median protein-free CVF concentration relative to 0.5 ng/mL ([1]; CVF, at Cmin under steady state conditions): > 800 fold
Women with detectable CVF concentrations ([1]; CVF, by 2 hours after the first dose (day 1)): 12 of 12
Cmax ([1]; CVF, day 1, single 300 mg oral dose, n = 12, median (interquartile range)): 694 (291–1283) ng/mL
Tmax ([1]; CVF, day 1, single 300 mg oral dose, n = 12, median (range)): 6 (4–12) h
Cmax [1, 5]: 1230 (409–1810) ng/mL
Tmax ([1]; CVF, day 7, 300 mg orally twice daily, n = 10, median (range)): 6 (0–12) h
AUCτ [1, 5]: 7500 (3078–9090) ng·h/mL
Tmax [1, 6]: 4 h
AUCτ [1, 6]: 4857 ng·h/g
AUCτ ratio Day 7:Day 1 (BP) ([1]; accumulation in BP, median (interquartile range)): 1.26 (1.16–1.30)
AUCτ ratio Day 7:Day 1 (CVF) ([1]; accumulation in CVF, median (interquartile range)): 2.13 (1.16–2.59)
CVF concentrations 72 hours after dose compared with BP concentrations 12 hours after dose ([1]; after the final dose on day 7, terminal elimination): similar
Time by which median CVF concentrations surpassed BP concentrations ([1]; day 1, after the first dose): ≤ 4 h
AUCτ ratio Day 1 CVF:BP ([1]; median (interquartile range)): 1.9
AUCτ ratio Day 1 CVF:BP [1, 7]: 1.91 (0.82–4.77)
Delay of Tmax in CVF compared with BP ([1]; day 7): 3 h
AUCτ ratio Day 7 CVF:BP ([1]; median (interquartile range)): 2.7
AUCτ ratio Day 7 CVF:BP [1, 7]: 2.73 (1.0–5.39)
VT exposure as percentage of the CVF exposure ([1]; day 7, AUCτ): approximately 65%
AUCτ ratio Day 7 VT:CVF ([1]; day 7, composite VT AUCτ): 0.65
AUCτ ratio Day 7 VT:BP ([1]; day 7, composite VT AUCτ divided by median BP AUCτ): 1.9
CVF concentrations relative to BP ([1]; end of the 12-hour dosing interval after 7 days of dosing): approximately 10 times
Protein binding in CVF, fold lower than BP ([2]; CVF vs BP): approximately 10 fold
CVF protein binding (mean) ([2]; pooled day 7 CVF samples at or close to Cmax, 4 pooled samples, 37°C, 16 hours): 7.6%
EKG abnormalities related to administration ([3]; 12-lead EKG): No EKG abnormalities
Serious adverse events [3]: no serious AEs reported
Adverse event frequency: fatigue ([3]; 12 subjects): 25%
Adverse event frequency: headache ([3]; 12 subjects): 17%
Adverse event frequency: nausea ([3]; 12 subjects): 17%
